Experimental data from PMC10877727.

How the values were obtained:
[1] = target: TraN_G47A-G48A (Enterococcus faecalis plasmid pIP501) (UniProt Q7BVV5); assay: MST; details: Kd in low micromolar range, value only in Figure 4B; MST in PBS-T (pH and temperature not stated); 50 nM RED-tris-NTA labelled His-protein, dsDNA 0.781 nM to 12.8 uM; Monolith NT.115, 60% LED and MST power; recombinant protein; residues 1-122; protein details: N-terminal 7xHis (pQTEV)
[2] = target: TraN_R23A-N24A-Q28A (Enterococcus faecalis plasmid pIP501) (UniProt Q7BVV5); assay: MST; details: Kd in low micromolar range, value only in Figure 4B; MST in PBS-T (pH and temperature not stated); 50 nM RED-tris-NTA labelled His-protein, dsDNA 0.781 nM to 12.8 uM; Monolith NT.115, 60% LED and MST power; recombinant protein; residues 1-122; protein details: N-terminal 7xHis (pQTEV)

Does “AGGGCGCACTTATACGCAGTAACTTCGTTACTTC (double strand) [random DNA 34-mer]” bind [1]?
Result: binds more weakly

Does “AGGGCGCACTTATACGCAGTAACTTCGTTACTTC (double strand) [random DNA 34-mer]” bind [2]?
Result: binds more weakly

Construct, isoform or probe ends are uncertain for at least one entry. Weaker means in comparison with the reference protein, sequence or condition of that experiment. At least one verdict was read from the data and is not stated in words by the source.
